Values from PubChem BioAssay AID504761 (Drosophila RNAi Screening Center, 2011)
Test: 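Insect host genes that dengue virus relies on to spread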 (primary screen). Cells: D.Mel-2 cells from Drosophila. Reagent: long dsRNA against Drosophila genes. Treatment: infection with dengue virus type 2; dose and infection time not stated. Detection: 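Per well on two replicate plates, imaging gave the percent of cells positive for viral envelope protein, ranked by infection, and a nuclear count of cells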. Reading the numbers: infection score: higher = more virus-infected cells; cell count: higher = more cells in the well. Hit rule: 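Low infection ranks in the two replicates (chance level up to 0.065) followed by a retest with a 1.5-fold or larger significant decrease, p below 0.05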. Meaning of the calls: active = confirmed: knock-down lowers infection; inactive = not picked or not confirmed.
The deposit covers about 22,000 reagents; shown is a random part of those that have a named target and a result. Of all reagents, 116 (0.52%) are marked active. 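Calls depend on retest data that are not deposited; infection was ranked per plate without normalising between plates; the unit of the infection score is not given.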 Raw values vary from plate to plate and are shown uncorrected. Entries without a mark were called inactive. Not given: the amount of reagent, the time to read-out.

CtsF [DRSC12056] → infection score, replicate 1: 1.92; infection score, replicate 2: 0.47; cell count, replicate 1: 6516; cell count, replicate 2: 6776
CtsF [DRSC12195] → infection score, replicate 1: 3.65; infection score, replicate 2: 8.86; cell count, replicate 1: 6584; cell count, replicate 2: 6410
CtsF [DRSC12196] → infection score, replicate 1: 6.85; infection score, replicate 2: 1.73; cell count, replicate 1: 6496; cell count, replicate 2: 7289
CG14036 [DRSC02361] → infection score, replicate 1: 5.09; infection score, replicate 2: 4; cell count, replicate 1: 5526; cell count, replicate 2: 6324
CG42286 (retired record) [DRSC24974] → infection score, replicate 1: 14.5; infection score, replicate 2: 8.43; cell count, replicate 1: 5709; cell count, replicate 2: 5526
CG1360 [DRSC06406] → infection score, replicate 1: 19.9; infection score, replicate 2: 8.88; cell count, replicate 1: 5250; cell count, replicate 2: 6478
CG1360 [DRSC29406] → infection score, replicate 2: 7.97; cell count, replicate 1: 240; cell count, replicate 2: 1606
Magi [DRSC04247] → infection score, replicate 1: 21.8; infection score, replicate 2: 12.2; cell count, replicate 1: 6025; cell count, replicate 2: 6594
Magi [DRSC04451] → infection score, replicate 1: 13.3; infection score, replicate 2: 27.4; cell count, replicate 1: 6648; cell count, replicate 2: 5958
Magi [DRSC26209] → infection score, replicate 1: 18.3; infection score, replicate 2: 3.54; cell count, replicate 1: 5375; cell count, replicate 2: 5872
inv [DRSC07633] → infection score, replicate 1: 4.87; infection score, replicate 2: 7.05; cell count, replicate 1: 6264; cell count, replicate 2: 5832
inv [DRSC29580] → infection score, replicate 2: 23.6; cell count, replicate 1: 405; cell count, replicate 2: 4649

Laid out differently: results already given
{"target gene": "CtsF", "DRSC id": "DRSC12056", "infection score, replicate 1": 1.92, "infection score, replicate 2": 0.47, "cell count, replicate 1": 6516, "cell count, replicate 2": 6776}
{"target gene": "CtsF", "DRSC id": "DRSC12195", "infection score, replicate 1": 3.65, "infection score, replicate 2": 8.86, "cell count, replicate 1": 6584, "cell count, replicate 2": 6410}
